Measurements as given in ChEMBL document CHEMBL4043124 (Bioorg Med Chem, 2017).

Test: Inhibition of Burkholderia pseudomallei beta-CA incubated for 15 mins by stopped-flow CO2 hydration assay

Work on NS(=O)(=O)O yielded a Ki of 83 µM.

In the case of NS(N)(=O)=O, the Ki is reported as 89 µM.

O=[As](O)(O)c1ccccc1 showed a Ki of 92 µM.
